Target: fused Cp (genetically-fused dimer of the hepatitis B virus core protein assembly domain) (hepatitis B virus)
Assay: native MS; non-covalent ESI-MS of the disassembly reaction without prior SEC: fused Cp capsids in 4 M urea, 50 mM ammonium acetate pH 9.5, 5 mM DTT, 4 °C ~16 h, then dialysed into 50 mM ammonium acetate pH 9.5, 5 mM DTT

fused Cp (genetically-fused dimer of the hepatitis B virus core protein assembly domain)
stoichiometry N: 4 copies

— publication PMC4481223
